Compound potency records, mixed from different reports. Data source: NIAID ChemDB in PubChem.

All rows: whole-cell or culture tests; agent: HIV-1; method: plaque count; read-out: EC50

Blank or dashed fields: not listed here. ECn is the concentration giving n% inhibition of infection, replication or growth. Conditions beyond the fields shown may differ between rows.

| structure | changes | strain or isolate | cells | value |
|---|---|---|---|---|
| Nc1ccn([C@H]2CC[C@@H](CO)O2)c(=O)n1 |  | HXB2 | HELA/CD4 + HELA CD4+ | 0.42 µM |
| Nc1ccn([C@H]2CC[C@@H](CO)O2)c(=O)n1 | RT-M184V | HXB2 | CD4+HELA + HeLa | 1.1 µM |
| S=C(NCCc1cccs1)Nc1ccc(Br)cn1 | RT-M41L D67N K70R L210W T215Y | G704-2 Clinical isolate NRTI-resistant | HT4 + HeLa | 0.01 µM |
| Cc1cn([C@H]2C[C@H](N=[N+]=[N-])[C@@H](CO)O2)c(=O)[nH]c1=O |  | P026A (RT-WT) | HT4 + HT4-6C | 0.01 µM |
| CCCCCCCCCCCCSCC(COP(=O)([O-])OCC[N+](C)(C)C)OCCCCCCCCO |  | RF2803 WT | CEM + CEM-SS | 0.08 µM |
| Nc1nc(=O)n([C@H]2CS[C@@H](CO)O2)cc1F |  | HXB2 | HELA/CD4 + HELA CD4+ | 6.85 µM |
| CCCCCCCCCCCCCC(=O)OC[C@H](COP(=O)(O)OP(=O)(O)OC[C@@H]1CC[C@H](n2cc(C)c(=O)[nH]c2=O)O1)OC(=O)CCCCCCCCCCCCC |  | AZT-resistant A012C Clinical isolate | HT4 + HT4-6C | 14 µM |
| O=c1[nH]cnc2c1ncn2[C@H]1CC[C@@H](CO)O1 | RT-L74V T215Y | HIVRTMF (RT L74V) | HT4 + HT4 LacZ-1 | 10 µM |
| O=c1[nH]c(=O)n([C@H]2C[C@H](F)[C@@H](CO)O2)cc1Cl |  | HXB2 | CD4+HELA + HeLa | 15.4 µM |
| Cc1cn([C@H]2C[C@H](N=[N+]=[N-])[C@@H](CO)O2)c(=O)[nH]c1=O |  | AZT-resistant A012C Clinical isolate | HT4 + HT4-6C | 4 µM |
| Nc1ccn([C@H]2C=C[C@@H](CO)O2)c(=O)n1 | RT-V75T T215Y | HXB2 | CD4+HELA + HeLa | 1.5 µM |
| Nc1nc(=O)n([C@@H]2CS[C@H](CO)O2)cc1F | RT-M184V | HXB2 | HT4 + HT4 LacZ-1 | >500 µM |
| CCCCCCCCCCCCSCC(COP(=O)([O-])OCC[N+](C)(C)C)OCCCCCCCCC(=O)OCC(=O)OC[C@H]1O[C@@H](n2cc(C)c(=O)[nH]c2=O)C[C@@H]1N=[N+]=[N-] |  | R5X4 WT | CEM + CEM-SS | 0.05 µM |
| Nc1ccn([C@H]2CC[C@@H](CO)O2)c(=O)n1 | RT-D67N K70R M184V T215F K219Q | RTMC(184) (RT D67N K70R M184V T215F K219Q) | HT4 + HT4 LacZ-1 | 0.92 µM |
| Cc1cn([C@H]2C[C@H](N=[N+]=[N-])[C@@H](CO)O2)c(=O)[nH]c1=O |  | HXB2D | HT4LACZ-1 + HT4 LacZ-1 | 0.02 µM |

2 of the rows above, restated:

structure | changes | strain or isolate | cells | value
Nc1ccn([C@H]2CC[C@@H](CO)O2)c(=O)n1 | RT-M184V | HXB2 | CD4+HELA + HeLa | 1.1 µM
Cc1cn([C@H]2C[C@H](N=[N+]=[N-])[C@@H](CO)O2)c(=O)[nH]c1=O |  | HXB2D | HT4LACZ-1 + HT4 LacZ-1 | 0.02 µM